Data as given in PubChem BioAssay AID1259414 (Drosophila RNAi Screening Center, 2018).

Assay: 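Genome-wide screen for host control of endosymbiont load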 (primary screen)
Cells: Drosophila JW18 cells infected with Wolbachia
Reagent: long dsRNA against Drosophila genes, 0.25 µg dsRNA per well of a 384-well plate
Time to read-out: 5 days
Conditions: cells persistently infected with Wolbachia before knock-down; no added drug
Measurement: 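Automated imaging of bacterial rRNA staining divided by host cell count, reported as plate-normalised robust z-score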
Reading the numbers: Wolbachia per cell robust z: higher = more Wolbachia per host cell than the plate typical
Rule for the call: 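Active if absolute robust z reaches 1.5 in two or more of three replicates, leaving out multi- or no-target dsRNAs, genes unexpressed in JW18 and A1 wells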
In all, the deposit lists about 24,000 reagents; below is a random part of those that have a named target and a result. Of all reagents, about 1,210 (5%) are marked active. 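Inactive calls also include excluded dsRNAs with several or no targets, genes unexpressed in JW18, and well A1, regardless of score.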 Names joined by + are all predicted targets of the reagent.

no.	target	dsRNA	Wolbachia per cell robust z, rep 1	Wolbachia per cell robust z, rep 2	Wolbachia per cell robust z, rep 3	outcome
1	drl	DRSC03523	0.827	-0.317	-0.899	inactive
2	drl	DRSC28564	-0.622	0.122	1.18	inactive
3	CG15296	DRSC17983	0.125	0.998	-0.0806	inactive
4	CG15296	DRSC26051	1.33	0.594	1.48	inactive
5	Arpc2	DRSC02113	0.031	-1.91	-0.456	inactive
6	Zyx	DRSC17186	0.717	1.22	0.249	inactive
7	CG11893	DRSC14429	0.68	-1.83	0.51	inactive
8	CG11893	DRSC29725	-2.29	-0.392	-1.67	active
9	gzl	DRSC12517	1.12	0.878	-0.433	inactive
10	gzl	DRSC27120	0.396	-0.377	-4.95	inactive
11	Hydr1	DRSC07063	0.846	0.724	-0.386	inactive
12	GstE8	DRSC06678	-1.35	-0.984	-1.14	inactive
13	CG9876	DRSC04586	0.225	1.12	-4.19	inactive
14	CG1622	DRSC19745	0.0568	-8.93	-0.403	inactive
15	CG1622	DRSC28342	-1.2	-1.99	-1.74	active
16	rt	DRSC11391	-1.03	-4.32	0.21	inactive
17	CG15547	DRSC15085	0.403	-3.98	0.423	inactive
18	CG15547	DRSC29577	1.13	0.403	1.18	inactive
19	CG15547	DRSC41625	-0.182	-1.11	0.0724	inactive
20	CG4565 + CG6567	DRSC15599	0.431	0.523	0.0024	inactive
21	mRpL3	DRSC20100	-0.527	-1.79	-4.68	active
22	CG10339	DRSC04065	-0.823	0.734	-1.7	inactive
23	Dro	DRSC07406	-0.00391	-3.81	0.177	inactive
24	Dro	DRSC39147	-0.782	-6.05	-0.403	inactive
25	CG6136	DRSC15975	-0.409	-1.01	0.302	inactive
26	Tgs1 + moi	DRSC16371	0.171	0.635	-4.69	inactive
27	Tgs1 + moi	DRSC39087	-4.13	0.271	-0.744	inactive
28	Dark	DRSC05922	-0.351	0.983	-0.371	inactive
29	Dark	DRSC27800	0.289	-0.852	-0.0773	inactive
30	Dark	DRSC40789	-2.44	-0.304	-0.37	inactive
31	RalGPS	DRSC06941	-0.42	1.2	-1.1	inactive
32	RalGPS	DRSC27139	0.0712	-0.816	0.569	inactive
33	CG6051	DRSC15956	0.662	0.112	0.573	inactive
34	CG6051	DRSC25123	-1.05	-0.572	-0.393	inactive
35	Gos28	DRSC16292	-3.41	1.16	-4.02	active
36	Gos28	DRSC22859	0.321	-2.46	-1.49	inactive
37	CR43669 + CR43670 + CR43671	DRSC01556	0.526	-0.0772	0.604	inactive
38	CG43049	DRSC40524	-3.2	-0.686	-1.23	inactive
39	Manf	DRSC14091	0.0588	0.338	1.33	inactive
40	msopa	DRSC23240	0.943	0.486	0.891	inactive
41	CG5103	DRSC10481	-1.3	0.417	-0.504	inactive
42	CG32548	DRSC19627	0.229	0.597	1.11	inactive
43	CG32548	DRSC19982	0.114	-3.75	-0.0103	inactive
44	CG32548	DRSC28857	-0.547	-0.094	-0.305	inactive
45	CG9902	DRSC20212	-0.284	-0.51	0.49	inactive
46	CG9902	DRSC24871	-0.111	-1.1	-0.324	inactive
47	CG8708	DRSC07240	0.865	-0.639	0.399	inactive
48	CG8708	DRSC27874	-0.84	0.513	-0.0795	inactive
49	CG32590	DRSC19594	-2.03	-0.00129	0.123	inactive
50	Sema2a	DRSC07551	-0.372	-1.8	-11.5	active
51	Sema2a	DRSC40818	0.857	-2.25	-0.754	inactive
52	Dbct	DRSC19951	-4.38	-0.846	-0.187	inactive
53	Dbct	DRSC25764	-1.2	-8.62	-1.43	inactive
54	RpS5a	DRSC20282	0.241	-2.41	11.7	inactive
55	CG34027	DRSC37751	-1.06	-0.946	-1.92	inactive
56	CG31926	DRSC00295	0.972	-0.7	0.301	inactive
57	CG31926	DRSC29022	-0.375	0.338	-0.175	inactive
58	CG8343	DRSC04905	-5.39	1.27	0.0637	inactive
59	CG8343	DRSC27692	0.23	-0.455	0.464	inactive
60	CG44014 + CG44013	DRSC14995	-0.431	-0.337	-0.443	inactive
61	CG7884	DRSC20065	0.124	-3.06	-1.34	inactive
62	CG7884	DRSC25412	0.586	1.05	0.797	inactive
63	CG42493	DRSC40609	-2.21	-1.26	-1.75	inactive
64	CG13114	DRSC02212	-1.14	-0.38	-4	inactive
65	CG31675	DRSC01825	-0.341	0.566	0.748	inactive
66	CG31675	DRSC26340	1.22	0.68	-0.234	inactive
67	CG12811	DRSC14549	-1.27	-0.642	-0.764	inactive
68	CG15253	DRSC01871	-0.548	-0.114	-0.407	inactive
69	CG15253	DRSC26826	0.615	0.246	-0.167	inactive
70	blot	DRSC09485	0.947	0.354	0.399	inactive
71	blot	DRSC11328	0.499	0.751	0.47	inactive
72	blot	DRSC26157	2.72	0.017	-0.353	inactive
73	CG7299	DRSC03043	-0.669	-1.16	-0.818	inactive
74	CG7299	DRSC25553	0.847	0.71	-0.492	inactive
75	CG40006	DRSC03787	-0.447	-0.222	0.446	inactive
76	CG40006	DRSC03809	0.689	0.552	-0.729	inactive
77	CG40006	DRSC03814	0.662	-0.284	-2.5	inactive
78	CG40006	DRSC03817	0.611	-0.683	-0.018	inactive
79	Mvl	DRSC16752	-5.74	-8.91	-3.19	active
80	Slik	DRSC04471	-1.02	0.14	-0.233	inactive
81	Slik	DRSC29219	-0.149	-0.431	-0.295	inactive
82	nes	DRSC11375	1.07	-0.102	0.263	inactive
83	Syx17	DRSC08591	-2.03	-0.788	0.219	inactive
84	Hsp22 + CG4456	DRSC11187	-1.61	-1.76	-0.824	inactive
85	Hsp22 + CG4456	DRSC11192	-6.08	-6.41	0.87	inactive
86	CG31928	DRSC00293	0.46	-0.0691	-0.354	inactive
87	CG32354	DRSC10763	0.586	-6.45	0.42	inactive
88	CG32354	DRSC10775	0.483	1.07	0.74	inactive
89	CG32354	DRSC21919	-1.2	-0.334	-0.397	inactive

7 entries already listed, arranged by “Wolbachia per cell robust z, rep 3”, ascending.
target	dsRNA	Wolbachia per cell robust z, rep 1	Wolbachia per cell robust z, rep 2	Wolbachia per cell robust z, rep 3	outcome
gzl	DRSC27120	0.396	-0.377	-4.95	inactive
CG9876	DRSC04586	0.225	1.12	-4.19	inactive
CG11893	DRSC29725	-2.29	-0.392	-1.67	active
GstE8	DRSC06678	-1.35	-0.984	-1.14	inactive
gzl	DRSC12517	1.12	0.878	-0.433	inactive
CG1622	DRSC19745	0.0568	-8.93	-0.403	inactive
Hydr1	DRSC07063	0.846	0.724	-0.386	inactive
